Compound potency records, mixed from different reports. Data source: NIAID ChemDB in PubChem.

Common to all: whole-cell or culture tests; species: Aspergillus niger; read-out: MIC

Blank or dashed fields: not listed here. Rows are shuffled and stem from different studies.

{"structure": "O=c1cc(Cc2c3ccccc3nc3ccccc23)c2cc(O)ccc2o1", "method": "agar diffusion / agar", "result": "250 µg/mL"}
{"structure": "CCOC(=O)C1/C(=N/Nc2ccc([N+](=O)[O-])cc2[N+](=O)[O-])C=C(c2ccc3ccccc3c2)CC1c1ccc(F)cc1", "strain or isolate": "Clinical isolates", "result": "6.25 µg/mL"}
{"structure": "CCn1cc(C(=O)O)c(=O)c2cc(F)c(N3CCN(CN4C(=O)C(=Nc5ccc(S(=O)(=O)Nc6ncccn6)cc5)c5ccccc54)CC3)cc21", "result": "156 µg/mL"}
{"structure": "CC(=O)O[C@H]1CC[C@@]2(C)C(=CCC3C4CCC(C(=O)/C=C/c5ccc(Cl)cc5Cl)[C@@]4(C)CCC32)C1", "strain or isolate": "MTCC 281", "method": "turbidity", "result": "350 µg/mL"}
{"structure": "CCC(=O)N1CCC(n2cc(-c3nc(-c4ccc(C)cc4)n[nH]3)nn2)CC1", "method": "agar", "result": ">200 µg/mL"}
{"structure": "COc1cc(OCC(=O)c2ccccc2)cc(OC)c1OC", "strain or isolate": "ATCC 16404", "method": "broth dilution", "conditions": "48 h", "result": ">125 µg/mL"}
{"structure": "Cn1cnc(-c2ccccc2)c1", "strain or isolate": "ATCC 16404", "method": "broth dilution", "conditions": "24 h", "result": ">512 µg/mL"}
{"structure": "CCOC(=O)C1/C(=N/Nc2ccc([N+](=O)[O-])cc2[N+](=O)[O-])C=C(c2ccc3ccccc3c2)CC1c1ccccc1", "strain or isolate": "Clinical isolates", "result": "100 µg/mL"}
{"structure": "CC(=O)CC(C)n1c2c(=O)c3ccccc3c(=O)c=2oc2ccc(C)cc21", "strain or isolate": "VKM F-1119", "result": "31.2 µg/mL"}
{"structure": "CC(C)(C)OC(=O)N1CCC(n2cc(-c3nc(-c4ccccc4)n[nH]3)nn2)CC1", "method": "agar", "result": ">200 µg/mL"}
{"structure": "OC(Cn1cncn1)(Cn1cncn1)c1ccc(F)cc1F", "strain or isolate": "MTCC 281", "method": "turbidity", "result": "150 µg/mL"}
{"structure": "CCCCCCCCCCCC(=O)NC(CCCN)C(=O)NC(CCCN)C(=O)NC(CCCN)C(N)=O", "strain or isolate": "ATCC 64028", "method": "broth dilution", "result": "6.25 µg/mL"}
{"structure": "Cc1ccc(C2CC(Cc3ccc(CC(C)C)cc3)=Cc3[nH][nH]c(=O)c32)cc1", "method": "agar diffusion", "result": "100 µg/mL"}
{"structure": "CCCCCCCCCC(=O)NC(CCCN)C(=O)NC(CCCN)C(=O)NC(CCCN)C(N)=O", "strain or isolate": "ATCC 64028", "method": "broth dilution", "result": "50 µg/mL"}
{"structure": "O=C(CSc1nnc(-c2ccc3ncccc3c2)o1)Nc1ccc(F)cc1", "method": "agar", "result": "25 µg/mL"}
{"structure": "CC(=O)O[C@H]1CC[C@@]2(C)C(=CCC3C4CCC(C(=O)/C=C/c5ccc(F)cc5F)[C@@]4(C)CCC32)C1", "strain or isolate": "MTCC 281", "method": "turbidity", "result": "500 µg/mL"}
{"structure": "COc1ccccc1OCC(=O)c1ccccc1", "strain or isolate": "ATCC 16404", "method": "broth dilution", "conditions": "72 h", "result": ">125 µg/mL"}
{"structure": "C[C@H]1[C@H](O)[C@@H](C)/C=C/C=C/C=C/C=C/C=C/C=C/C=C/[C@H](O[C@@H]2O[C@H](C)[C@@H](O)[C@H](N)[C@@H]2O)C[C@@H]2O[C@](O)(C[C@@H](O)C[C@@H](O)CC[C@H](O)[C@@H](O)C[C@@H](O)CC(=O)O[C@H]1C)C[C@H](O)[C@H]2C(=O)O", "strain or isolate": "ATCC 16404", "method": "broth dilution / resazurin", "result": "0.98 µg/mL"}
{"structure": "C[C@H]1[C@H](O)[C@@H](C)/C=C/C=C/C=C/C=C/C=C/C=C/C=C/[C@H](O[C@@H]2O[C@H](C)[C@@H](O)[C@H](N)[C@@H]2O)C[C@@H]2O[C@](O)(C[C@@H](O)C[C@@H](O)CC[C@H](O)[C@@H](O)C[C@@H](O)CC(=O)O[C@H]1C)C[C@H](O)[C@H]2C(=O)O", "strain or isolate": "ATCC 16404", "method": "absorbance", "result": "0.5 µg/mL"}
{"structure": "O=C(c1ccccc1)N1CCC(n2cc(-c3nc(-c4ccccc4)n[nH]3)nn2)CC1", "method": "agar", "result": ">200 µg/mL"}
{"structure": "O=C1C(Cl)=C(Oc2cccc(N3CC(c4nnco4)CC3=O)c2)C(=O)c2ccccc21", "strain or isolate": "VCM F-1119", "result": "62.5 µg/mL"}
{"structure": "CCOC(=O)C1/C(=N/Nc2ccc([N+](=O)[O-])cc2[N+](=O)[O-])C=C(c2ccc3ccccc3c2)CC1c1ccc(Br)cc1", "strain or isolate": "Clinical isolates", "result": "6.25 µg/mL"}
{"structure": "Cc1ccc(N2NOC(=O)C2S(=O)(=O)Nc2nc3ccc([N+](=O)[O-])cc3s2)cc1", "strain or isolate": "MTCC 282", "method": "broth dilution", "result": "200 µg/mL"}
{"structure": "O/N=C(/COc1cccc(F)c1)c1ccccc1", "strain or isolate": "ATCC 16404", "method": "broth dilution", "conditions": "48 h", "result": ">125 µg/mL"}
{"structure": "CCn1cc(C(=O)O)c(=O)c2cc(F)c(N3CCNCC3)cc21", "result": "156 µg/mL"}
{"structure": "O=C(COc1cccc(F)c1)c1ccccc1", "strain or isolate": "ATCC 16404", "method": "broth dilution", "conditions": "48 h", "result": ">125 µg/mL"}
{"structure": "C[C@@H](c1ncncc1F)[C@](O)(Cn1cncn1)c1ccc(F)cc1F", "strain or isolate": "27", "method": "broth dilution", "result": "1 µg/mL"}
{"structure": "CC(C)Cc1ccc(CC2=Cc3[nH][nH]c(=O)c3C(c3ccc(F)cc3)C2)cc1", "method": "agar diffusion", "result": "25 µg/mL"}
{"structure": "C[C@@H](c1ncncc1F)[C@](O)(Cn1cncn1)c1ccc(F)cc1F", "strain or isolate": "ATCC 9642", "result": "1.56 µg/mL"}
{"structure": "O=C1C(Oc2cccc(N3CC(c4nnco4)CC3=O)c2)=C(Oc2cccc(N3CC(c4nnco4)CC3=O)c2)C(=O)c2ccccc21", "strain or isolate": "VCM F-1119", "result": "7.8 µg/mL"}
{"structure": "Cc1ccc(C)n1NC(=O)CC(C)Nc1ccccc1O", "strain or isolate": "VKM F-1119", "result": "125 µg/mL"}
{"structure": "CCOc1ccc2nc(NS(=O)(=O)C3C(=O)ONN3c3ccc(C)cc3)sc2c1", "strain or isolate": "MTCC 282", "method": "broth dilution", "result": "500 µg/mL"}
{"structure": "C=C(C(=O)O[C@H]1C[C@]2(C)[C@H]([C@@H](CO)CC[C@H]2O)[C@H]2OC(=O)C(=C)[C@@H]21)C(O)CO", "strain or isolate": "ATCC 6275", "result": "0.5 µg/mL"}
{"structure": "O=C(CSc1nnc(-c2ccc3ncccc3c2)o1)Nc1ccc(Br)cc1", "method": "agar", "result": "50 µg/mL"}
{"structure": "CCOC(=O)C1/C(=N/Nc2ccc([N+](=O)[O-])cc2[N+](=O)[O-])C=C(c2ccc3ccccc3c2)CC1c1cccc(Cl)c1", "strain or isolate": "Clinical isolates", "result": "6.25 µg/mL"}
{"structure": "COc1cc(OC/C(=N/O)c2ccccc2)cc(OC)c1OC", "strain or isolate": "ATCC 16404", "method": "broth dilution", "conditions": "48 h", "result": ">125 µg/mL"}
{"structure": "O=C(NN1C(=O)/C(=C/c2cc3ccccc3nc2Cl)N=C1c1ccccc1)c1cccc(Cl)c1", "strain or isolate": "MTCC 282", "method": "broth dilution", "result": "1000 µg/mL"}
{"structure": "CC(=O)CC(C)n1c2c(=O)c3ccccc3c(=O)c=2oc2ccccc21", "strain or isolate": "VKM F-1119", "result": "15.6 µg/mL"}
{"structure": "CCCCCCCCCCCCCCCCCC(=O)NC(CCCN)C(N)=O", "strain or isolate": "ATCC 64028", "method": "broth dilution", "result": ">100 µg/mL"}
{"structure": "COc1ccc(-c2nc3ccccc3c(=O)n2-c2ccc(NS(=O)(=O)C3C(=O)ONN3c3ccc(C)cc3)cc2)cc1[N+](=O)[O-]", "strain or isolate": "MTCC 282", "method": "broth dilution", "result": "1000 µg/mL"}
{"structure": "O=C(CSc1nnc(-c2ccc3ncccc3c2)o1)Nc1ccc(I)cc1", "method": "agar", "result": "100 µg/mL"}
{"structure": "CC(C)S(=O)(=O)N1CCN(c2cnn(-c3cc(F)cc(F)c3)c(=O)c2OC2CCC(F)C2)CC1", "strain or isolate": "ND254", "method": "broth dilution", "result": "0.06 µg/mL"}
{"structure": "CC(C)Cc1ccc(CC2=Cc3[nH][nH]c(=O)c3C(c3ccc(Cl)cc3)C2)cc1", "method": "agar diffusion", "result": "100 µg/mL"}
{"structure": "O=C1CC(c2ccccc2)N(C(=O)CCl)C(c2ccccc2)C1", "result": ">200 µg/mL"}
{"structure": "CCCCCCCCCC(=O)NC(CCCN)C(=O)NC(CCCN)C(N)=O", "strain or isolate": "ATCC 64028", "method": "broth dilution", "result": ">100 µg/mL"}
{"structure": "C[n+]1c[nH]cc1-c1ccccc1", "strain or isolate": "ATCC 16404", "method": "broth dilution", "conditions": "48 h", "result": "500 µg/mL"}
{"structure": "CS(=O)(=O)N1CCC(n2cc(-c3nc(-c4ccccc4)n[nH]3)nn2)CC1", "method": "agar", "result": "40 µg/mL"}
{"structure": "Cc1ccc(N2NOC(=O)C2S(=O)(=O)Nc2ccc(-n3c(-c4ccccc4[N+](=O)[O-])nc4ccccc4c3=O)cc2)cc1", "strain or isolate": "MTCC 282", "method": "broth dilution", "result": "250 µg/mL"}
{"structure": "CCn1cc(C(=O)O)c(=O)c2cc(F)c(N3CCN(CN4C(=O)C(=Nc5ccc(S(=O)(=O)Nc6ncnc(OC)c6OC)cc5)c5ccccc54)CC3)cc21", "result": "9.76 µg/mL"}
{"structure": "CS(=O)(=O)N1CCC(n2cc(-c3nc(-c4ccc([N+](=O)[O-])cc4)n[nH]3)nn2)CC1", "method": "agar", "result": "30 µg/mL"}
{"structure": "C=C(C(=O)O[C@H]1CC(C)=CCC/C(CO)=C/[C@H]2OC(=O)C(=C)[C@H]12)C(O)COC(C)=O", "strain or isolate": "ATCC 6275", "result": "0.125 µg/mL"}
{"structure": "Cn1ccnc1Cc1nccn1C", "strain or isolate": "ATCC 16404", "method": "broth dilution", "conditions": "48 h", "result": ">512 µg/mL"}
{"structure": "CCCCCCCCCC(=O)NC(CCCN)C(=O)NC(CCCN)C(=O)NC(CCCN)C(=O)NC(CCCN)C(=O)NC(CCCN)C(N)=O", "strain or isolate": "ATCC 64028", "method": "broth dilution", "result": "50 µg/mL"}
{"structure": "C=C[C@]1(C)C[C@H](OC(=O)C(=C)C(O)COC(C)=O)[C@H]2C(=C)C(=O)O[C@@H]2[C@H]1C(=C)CO", "strain or isolate": "ATCC 6275", "result": "0.5 µg/mL"}
{"structure": "O=c1c(N2CCOCC2)c(N2CCN(S(=O)(=O)Cc3ccccc3)CC2)cnn1-c1ccccc1", "strain or isolate": "ND254", "method": "broth dilution", "result": "0.78 µg/mL"}
{"structure": "O/N=C(\\COc1ccccc1)c1ccccc1", "strain or isolate": "ATCC 16404", "method": "broth dilution", "conditions": "48 h", "result": ">125 µg/mL"}
{"structure": "CC(C)Cc1ccc(CC2=Cc3[nH][nH]c(=O)c3C(c3ccccc3)C2)cc1", "method": "agar diffusion", "result": "100 µg/mL"}
{"structure": "O=C(NN1C(=O)/C(=C/c2cc3ccccc3nc2Cl)N=C1c1ccccc1)c1cccc([N+](=O)[O-])c1", "strain or isolate": "MTCC 282", "method": "broth dilution", "result": "500 µg/mL"}
{"structure": "CCn1cc(C(=O)O)c(=O)c2cc(F)c(N3CCN(CN4C(=O)/C(=N\\c5ncc(Cc6cc(OC)c(OC)c(OC)c6)c(N)n5)c5cc(Br)ccc54)CC3)cc21", "result": "19.53 µg/mL"}
{"structure": "Cc1cc(=O)oc2c(C=Nc3cccc4cccc(N=Cc5c(O)ccc6c(C)cc(=O)oc56)c34)c(O)ccc12", "strain or isolate": "MTCC 1881", "result": "10 µg/mL"}
{"structure": "O=C(NN1C(=O)/C(=C/c2cc3ccccc3nc2Cl)N=C1c1ccccc1)c1ccc(F)cc1", "strain or isolate": "MTCC 282", "method": "broth dilution", "result": "1000 µg/mL"}
{"structure": "CCn1cc(C(=O)O)c(=O)c2cc(F)c(N3CCN(CN4C(=O)/C(=N\\c5ncc(Cc6cc(OC)c(OC)c(OC)c6)c(N)n5)c5ccccc54)CC3)cc21", "result": "78.12 µg/mL"}
{"structure": "CCCCCCCCCCCCCCCC(=O)NC(CCCN)C(N)=O", "strain or isolate": "ATCC 64028", "method": "broth dilution", "result": ">100 µg/mL"}
{"structure": "C[C@H]1N(C(=O)c2ccc(C(F)(F)F)cc2)CCO[C@@]1(Cn1cncn1)c1ccc(F)cc1F", "strain or isolate": "Isolate 2", "result": "50 µg/mL"}
{"structure": "Cc1ccc(N2NOC(=O)C2S(=O)(=O)Nc2nc3c([N+](=O)[O-])cccc3s2)cc1", "strain or isolate": "MTCC 282", "method": "broth dilution", "result": "1000 µg/mL"}
{"structure": "O=C(NN1C(=O)/C(=C/c2cc3ccccc3nc2Cl)N=C1c1ccccc1)c1ccccc1O", "strain or isolate": "MTCC 282", "method": "broth dilution", "result": "250 µg/mL"}
{"structure": "Cc1ccc(N2NOC(=O)C2S(=O)(=O)Nc2nc3ccc(Br)cc3s2)cc1", "strain or isolate": "MTCC 282", "method": "broth dilution", "result": "500 µg/mL"}
{"structure": "C=CCSS(=O)C=C", "method": "agar", "result": "100000 µg/mL"}

For reference, 5 entries again:

| structure | strain or isolate | method | conditions | result |
|---|---|---|---|---|
| CCOC(=O)C1/C(=N/Nc2ccc([N+](=O)[O-])cc2[N+](=O)[O-])C=C(c2ccc3ccccc3c2)CC1c1ccccc1 | Clinical isolates |  |  | 100 µg/mL |
| CCCCCCCCCC(=O)NC(CCCN)C(=O)NC(CCCN)C(=O)NC(CCCN)C(N)=O | ATCC 64028 | broth dilution |  | 50 µg/mL |
| CCCCCCCCCCCC(=O)NC(CCCN)C(=O)NC(CCCN)C(=O)NC(CCCN)C(N)=O | ATCC 64028 | broth dilution |  | 6.25 µg/mL |
| Cc1ccc(C)n1NC(=O)CC(C)Nc1ccccc1O | VKM F-1119 |  |  | 125 µg/mL |
| CC(=O)O[C@H]1CC[C@@]2(C)C(=CCC3C4CCC(C(=O)/C=C/c5ccc(Cl)cc5Cl)[C@@]4(C)CCC32)C1 | MTCC 281 | turbidity |  | 350 µg/mL |